From ChEMBL document CHEMBL2177030

Protein sequences, listed by entry. Tags and fused reporters are not part of them. Lines headed by an entry give the natural chain unless they say otherwise; changes in a name come on top.
UniProt O07427: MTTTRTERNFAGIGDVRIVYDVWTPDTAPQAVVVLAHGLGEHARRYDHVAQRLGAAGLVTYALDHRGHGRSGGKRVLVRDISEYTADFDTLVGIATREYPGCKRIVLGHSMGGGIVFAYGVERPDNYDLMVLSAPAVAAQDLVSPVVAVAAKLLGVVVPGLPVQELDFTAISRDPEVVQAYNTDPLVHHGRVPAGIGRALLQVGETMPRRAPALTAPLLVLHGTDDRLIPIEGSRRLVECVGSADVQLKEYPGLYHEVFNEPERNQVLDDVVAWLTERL

Legend:
[1] = target: T1, Cutinase 1 (Fusarium vanettenii) (UniProt P00590); assay: Inhibition of Fusarium solani pisi cutinase pre-incubated for 30 mins with enzyme before substrate addition by pH-stat technique
T1 sequence (whole entry): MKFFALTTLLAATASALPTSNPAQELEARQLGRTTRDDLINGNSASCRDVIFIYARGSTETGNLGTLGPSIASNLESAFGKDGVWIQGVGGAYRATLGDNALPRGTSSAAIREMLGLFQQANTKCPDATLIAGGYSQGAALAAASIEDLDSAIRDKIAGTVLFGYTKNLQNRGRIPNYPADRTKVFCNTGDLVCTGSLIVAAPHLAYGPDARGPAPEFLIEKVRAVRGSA
In short: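 Cutinase was preincubated for 30 min at 25 °C in 2 mM NaTDC, substrate absent, at inhibitor molar excess xI 2, 4, 20, 40 or 100. Residual activity was measured by pH-stat at 37 °C on TC4 emulsion at pH 8.0 with 0.25 mM NaTDC. xI50 is the molar excess giving 50% activity. Isopropanol controls were run. At least duplicate.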

[2] = target: Monoacylglycerol lipase (Mycobacterium tuberculosis H37Rv) (UniProt O07427); assay: Inhibition of Mycobacterium tuberculosis Rv0183 pre-incubated for 30 mins with enzyme before substrate addition by pH-stat technique
In short: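 Rv0183 was preincubated 30 min at 25 °C without NaTDC at inhibitor molar excess 2, 4, 20, 40 or 100. Residual monoglyceride lipase activity was measured by pH-stat at 37 °C with MC18 emulsion, pH 8.0, 3 mM NaTDC. xI50 was read from the residual-activity curve. Solvent controls were run. At least duplicate.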

[3] = system: Mycobacterium tuberculosis; assay: Inhibition of Mycobacterium tuberculosis LipY pre-incubated for 30 mins with enzyme before substrate addition by pH-stat technique
In short: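 Without NaTDC, LipY was incubated 30 min at 25 °C with inhibitor at xI 2–100. Residual activity was determined by pH-stat at 37 °C on TC4 in 2.5 mM Tris-HCl pH 7.5, 300 mM NaCl, 3 mM NaTDC. xI50 was taken from activity versus molar excess. Isopropanol-only controls were run. At least duplicate.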

COC(=O)C1=C(C)OP(=O)(OC)CCC1c1ccccc1 (stereo not drawn)
XI50 [1]: > 100 molar excess | XI50 [2]: 16.2 molar excess | XI50 [3]: inactive

Calls of active or inactive are those of the source. No cut-off for these calls is given here.
